Experiments:
[1] = species: Homo sapiens; assay: Activity relative to compound 3 (set to 1.0) was evaluated against H116 colon tumor cell lines; format: functional
[2] = test system: colon; assay: Selectivity was evaluated against human ZH116 colon cell lines-CEM lymphocytic leukemia cell lines at a concentration of 31 ug/mL
[3] = test system: MC-38; assay: Selectivity was evaluated against murine tumor ZC38 colon adenocarcinoma cell lines- ZCFU-GM normal bone marrow cell lines at a concentration of 31 ug/mL; conditions: Mus musculus
[4] = test system: NCI-H125; assay: Selectivity was evaluated against human ZH125 lung non small cell carcinoma cell lines-CEM lymphocytic leukemia cell lines at a concentration of 31 ug/mL
[5] = test system: MC-38; assay: Selectivity was evaluated against Murine tumor ZC38 colon adenocarcinoma cell lines- ZL1210 lymphocytic leukemia cell lines at a concentration of 31 ug/mL; conditions: Mus musculus
[6] = test system: L1210; assay: Selectivity was evaluated murine tumor against ZL1210 lymphocytic leukemia cell lines- ZCFU-GM normal bone marrow cell lines at a concentration of 31 ug/mL; conditions: Mus musculus

Q: CC(=O)OC(C)[C@@H](O)/C=C/C=C\C(=O)O[C@@H]1CC2O[C@@H]3C=C(C)CC[C@]3(COC(=O)/C=C(\C)CCO)[C@]1(C)[C@]21CO1 (stereo partly specified) [13`-ACETYLTRICHOVERRIN B] was tested. Which Relative activity [1] did it give?
A: 9

Q: And the Selectivity [2]?
A: -150 zone unit

Q: What about the Selectivity [3] of the same molecule?
A: -100 zone unit

Q: What about the Selectivity [4] of the same molecule?
A: 400 zone unit

Q: What about the Selectivity [5] of the same molecule?
A: -400 zone unit

Q: What about the Selectivity [6] of the same molecule?
A: 300 zone unit
